## Percent effect of library compounds

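Growth of Mycobacterium tuberculosis over 4 days (cholesterol / DPPC medium with tyloxapol); the read-out is not stated. Concentration: 500 µM. Higher reads as more growth inhibition (inferred: compounds with an IC50 in retests scored well above the rest). Of about 18,000 compounds tested this way, about 900 (5%) reached 50% or more in at least one test.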

Values are the deposited “Percent Effect”, in %.
The record does not define 0% and 100%; most values in the screen are far below 50% and negative numbers occur (in some assays of this library far below -100).
The entries come from a sample that favours strong results.

| SMILES | percent effect |
|---|---|
| `COC1CCN(C(=O)Cc2ccc(N(C)C)cc2)C1` (stereo not given) | 58.7 |
| `O=C(C1CCC1)N1CCn2c1nc1ccccc12` | 19.74 |
| `CN(C)CCO[C@@H]1COCC[C@H]1NC(=O)C1CC=CC1` | 1.153 |
| `Cc1cc(C(=O)NCCNc2ccccc2)[nH]n1` | -9.333 |
| `N[C@@H]1C[C@H]1c1ccc2c(c1)OCCO2` | 50.13 |
| `Cc1nc(CNC(=O)CC2=CCCCC2)no1` | 51.82 |
| `CN(C)C(CNC(=O)c1ccc(O)nc1)c1cccs1` (stereo not given) | -9.281 |
| `CN(CC(N)=O)C(=O)c1ccc(-c2ccco2)[nH]c1=O` | -11.98 |
| `Cc1noc(COC2CNC2)n1` | -1.561 |
| `O=S(=O)(Cc1ccc(Cl)cc1)c1ccccn1` | 27.84 |
| `CC(C)NCC(=O)NC(N)=O` | -9.183 |
| `CC(N)c1ccc(Br)cc1OCCCO` (stereo not given) | 14.44 |
| `O=C(NCC1CCN(C2CC2)C1)Nc1ccccn1` (stereo not given) | 19.46 |
| `CCS(=O)(=O)NCCNCc1cccc(Cl)c1F` | 4.748 |
| `Cn1nnnc1NCc1cccc(Cl)c1Cl` | 50.24 |
| `CC(C)CNC(=O)c1cc2ncc(Br)cn2n1` | -3.141 |
| `CCOC(=O)C1CCCN(c2nccnc2C#N)C1` (stereo not given) | 21.15 |
| `FC(F)(F)CCOC1CCNCC1` | 28.56 |
| `COc1cccc(S(=O)(=O)NCCc2noc(C)n2)c1` | 11.73 |
| `COc1cccc(S(=O)(=O)CCN2CCN(C)CC2)c1` | 89.57 |
| `CSCCOC(=O)c1ccn(C(C)C)n1` | 56.06 |
| `O=C(NCCO)c1ccc(OCc2cccs2)cc1` | 58.83 |
| `CC(C)(N)C(O)c1ccc(Br)cc1` (stereo not given) | 59.54 |
| `O=C(CCc1ccccc1)N1CC(c2cccnc2)C1` | 59.7 |
| `CC(NC(=O)Nc1ccccn1)C1CCN(C)CC1` (stereo not given) | -9.967 |
| `CCCn1ncnc1-c1ccc(C(N)=O)c(Cl)c1` | -8.419 |
| `Cc1ccc(NC(=O)NC2CCN(C)CC2)cc1` | -18.94 |
| `CCC(=O)NC1CCCc2occc21` (stereo not given) | -1.093 |
| `O=C(Cn1cnnn1)Nc1cccc(-n2cccc2)c1` | 7.999 |
| `COCc1nn(CCn2cc(Br)cn2)c(=O)o1` | 45.38 |
| `COc1cccc(-n2nnc(C(=O)NC3CC3)c2C)c1` | 56.19 |
| `NC(=O)[C@H](Cc1ccccc1)NC(=O)c1cnn[nH]1` | -13.7 |
| `O=C(Nc1nc(-c2ccsc2)ns1)C1CCCN1` (stereo not given) | 64.9 |
| `CCN(CC)CCNC(=O)Nc1ccc2cn[nH]c2c1` | -2.007 |
| `CC(C)(C)OC(=O)N1CCC(n2ccc(N)n2)C1` (stereo not given) | 2.835 |
| `Cc1ccccc1-n1nnnc1SCC(=O)NC1CC1` | 24.71 |
| `Cc1ncncc1C(=O)NCC(C)(C)CN(C)C` | 0.6288 |
| `CCNCC(C)(O)c1ccccc1` (stereo not given) | 18.87 |
| `COCc1nc2n(n1)CCCC2NC1CCSCC1` (stereo not given) | 27.99 |
| `CNC(=O)c1cccc(NCCN2CCCC(C)C2)n1` (stereo not given) | -1.454 |
| `COc1cccc(CC(=O)N(C)Cc2cnccn2)c1` | -4.411 |
| `Cc1ccc(CNCCNCCO)s1` | -3.142 |
| `O=C(NC1=NCCS1)c1csc(Br)c1` | 18.48 |
| `CC(C)n1cc(S(=O)(=O)N2CCC3(CCOC3)C2)cn1` (stereo not given) | 9.031 |
| `CC(C)(C)NC(=O)CNC(=O)c1cccc2cn[nH]c12` | 1.05 |
| `COc1ccc(OCCCC(=O)NCCN(C)C)cc1` | 21.97 |
| `CCN(CC)CC(=O)Nc1ccc2c(c1)OCO2` | 17.87 |
| `Cc1ccccc1C(=O)N1CC(=O)Nc2ccccc21` | 12.54 |
| `CC[C@H](N)c1ccccc1F` | 9.16 |
| `COc1cccc(Nc2ccc(N)nc2)c1` | 78.88 |
| `CC(CO)NS(=O)(=O)c1cc(N(C)C)ccc1Br` (stereo not given) | 22.08 |
| `Cc1n[nH]c(C)c1NC(=O)OC(C)(C)C` | -0.277 |
| `CNC(=O)CNC(=O)c1ccc(C#N)c(C)n1` | -13.17 |
| `CC1CC(=O)NCCN1` (stereo not given) | 12.51 |
| `CNCCc1ccccc1OC` | 91.24 |
| `O=C(N[C@@H]1CCOC[C@H]1O)c1ccncc1` | -5.282 |
| `CN(Cc1nnc2n1CCC2)C(=O)c1ccc(Cl)s1` | -6.8 |
| `COc1ccc(F)cc1C(=O)N1CC[C@H]2CC[C@@H](C1)N2` | 0.4465 |
| `CC(O)(CN)C1CCCC1` (stereo not given) | -11.27 |
| `O=C(NCCOc1ncccc1Cl)c1cscn1` | -10.66 |

The last 5 entries again:

SMILES,percent effect
O=C(N[C@@H]1CCOC[C@H]1O)c1ccncc1,-5.282
CN(Cc1nnc2n1CCC2)C(=O)c1ccc(Cl)s1,-6.8
COc1ccc(F)cc1C(=O)N1CC[C@H]2CC[C@@H](C1)N2,0.4465
CC(O)(CN)C1CCCC1 (stereo not given),-11.27
O=C(NCCOc1ncccc1Cl)c1cscn1,-10.66

Measurements from “University of Dundee, Small-Polar-MMV Screening Library” (2021), ChEMBL document CHEMBL3988442.